Results of unrelated studies side by side (data: NIAID ChemDB).

All rows: growth or infection tests; species: HIV-1; cells: PBMC; measure: EC50

Blank or dashed fields: not listed here.

SMILES	strain	mutations	read by	setting	value
Cc1cn([C@H]2C[C@H](N=[N+]=[N-])[C@@H](CO)O2)c(=O)[nH]c1=O	G190-6 Clinical isolate ZDV-resistant	RT-M41L D67N K70R T215Y K219Q	p24		>3.2 µM
Cc1cn([C@H]2C[C@H](N=[N+]=[N-])[C@@H](CO)O2)c(=O)[nH]c1=O	Recombinant	RT-V75I F77L F116Y Q151M	p24		0.2 µM
Cc1cn([C@H]2C[C@H](N=[N+]=[N-])[C@@H](CO)O2)c(=O)[nH]c1=O	4755-5 NRTI resistant recombinant	RT-M41L E44D D67N T69D Y118I M184V L210W T215Y	RT activity		0.0154 µM
CN[C@@H]1[C@H](O[C@@H]2OC[C@@H](O)[C@H](O)[C@H]2O)[C@@H](O)[C@H](O[C@H]2c3cc(C)c(C(=O)N[C@H](C)C(=O)O)c(O)c3-c3c(cc4c(c3O)C(=O)c3cc(OC)cc(O)c3C4=O)[C@@H]2O)O[C@@H]1C	IIIB X4		p24		2.8 µg/mL
Nc1ccn([C@@H]2CS[C@H](CO)O2)c(=O)n1	Recombinant	RT-V75I F77L Q151M	p24		0.08 µM
S=C(NCCc1cccs1)Nc1ccc(Br)cn1	T155-3 Clinical isolate NRTI-resistant	RT-M41L E44D D67N T69D L210W T215Y	p24		0.0035 µM
COC(=O)[C@H](C)NP(=O)(OC[C@@H]1C=C[C@H](n2cc(C)c(=O)[nH]c2=O)O1)Oc1ccc(Br)cc1	G890-1 NRTI resistant	RT-K20R M41L D67N T69N K70R L210W T215Y	p24		0.006 µM
COC(=O)[C@H](C)NP(=O)(OC[C@@H]1C=C[C@H](n2cc(C)c(=O)[nH]c2=O)O1)Oc1ccc(Br)cc1	G780-1 Clinical isolate ZDV-resistant	RT-M41L D67N K70R T215F K219Q	p24		0.035 µM
CCO/N=C(\c1ccc(Br)cc1)C1CCN(C2(C)CCN(C(=O)c3c(C)cc[n+]([O-])c3C)CC2)CC1	93UG082 R5 CLADE D		p24		0.00095 µM
CC(C)=CCN1Cc2cc(Cl)cc3[nH]c(=S)n(c23)C[C@@H]1C	LAI				0.02 µM
CC(C)(C)NC(=O)[C@@H]1CN(Cc2cccnc2)CCN1C[C@@H](O)C[C@@H](Cc1ccccc1)C(=O)N[C@H]1c2ccccc2C[C@H]1O	Ba-L Laboratory isolate		p24		0.017 µM
CC(C)(C)NC(=O)[C@@H]1C[C@@H]2CCCC[C@@H]2CN1C[C@@H](O)[C@H](Cc1ccccc1)NC(=O)[C@H](CC(N)=O)NC(=O)c1ccc2ccccc2n1	RUD (PR L10I/K20C/M36I/L63T/I64V/A71M)	PR-L10I K20C M36I L63T I64V A71M			0.013 µM
Cc1ccc(-c2ccc3c(c2)C=C(C(=O)Nc2ccc(C[N+](C)(C)C4CCOCC4)cc2)CCC3)cc1	IIIB X4		antigen		>1 µg/mL
CC(=O)N1CCC(C(=O)N(CCCN2CCC(Cc3ccc(C(N)=O)cc3)CC2)c2ccc(C)c(Cl)c2)CC1	KK R5 clinical isolate		p24		0.0012 µM
CC(C)CN(C[C@@H](O)[C@H](Cc1ccccc1)NC(=O)O[C@H]1CCOC1)S(=O)(=O)c1ccc(N)cc1	Clinical isolate	PR-L10R N37D M46I I62V L63P A71V G73S V77I V82T L90M I93L	p24		0.15 µM
O=C1N(Cc2ccc(CO)cc2)[C@H](Cc2ccccc2)[C@H](O)[C@@H](O)[C@@H](Cc2ccccc2)N1Cc1ccc(CO)cc1	Clinical isolate L		p24		0.11 µM
Cc1c(O)cccc1C(=O)N[C@@H](CSc1ccccc1)[C@H](O)CN1C[C@H]2CCCC[C@H]2C[C@H]1C(=O)NC(C)(C)C	Clinical isolate	PR-L10I I15V K20R M36I M46L I54V K55R I62V L63P K70Q V82A L89M	p24		0.33 µM
CCC(=O)c1ccc(F)c([C@@H]2C[C@@H]2NC(=O)Nc2ccc(C#N)cn2)c1O	NL4-3		absorbance		0.0006 µM
c1cc(CN2CCCNCCNCCCNCC2)ccc1CN1CCCNCCNCCCNCC1	SW20 CLADE C R5X4		p24		<0.5 µM
Cc1ccnc2c1NC(=O)c1cccnc1N2C1CC1	CLADE B		cytopathic effect / XTT	clinical isolate	0.07 µM
O=c1[nH]cnc2c1ncn2[C@H]1CC[C@@H](CO)O1	7932 CLADE B CLADE B		p24		0.252 µM
CC(C)(C)NC(=O)[C@@H]1C[C@@H]2CCCC[C@@H]2CN1C[C@@H](O)[C@H](Cc1ccccc1)NC(=O)[C@H](CC(N)=O)NC(=O)c1ccc2ccccc2n1	Clinical isolate	PR-L10R N37D M46I I62V L63P A71V G73S V77I V82T L90M I93L	p24		0.042 µM
Cc1cn([C@H]2C[C@H](N=[N+]=[N-])[C@@H](CO)O2)c(=O)[nH]c1=O	H112-2		p24		0.03 µM
Cc1ccnc2c1NC(=O)c1cccnc1N2C1CC1	VAU (RT-A98G)	RT-A98G			0.1 µM
Cc1cc(C#N)cc(C)c1Oc1nc(Nc2ccc(C#N)cc2)nc(N)c1Br	NL4-3		absorbance		0.0006 µM

For reference, 3 entries again:

SMILES | strain | mutations | read by | setting | value
COC(=O)[C@H](C)NP(=O)(OC[C@@H]1C=C[C@H](n2cc(C)c(=O)[nH]c2=O)O1)Oc1ccc(Br)cc1 | G890-1 NRTI resistant | RT-K20R M41L D67N T69N K70R L210W T215Y | p24 |  | 0.006 µM
CC(C)(C)NC(=O)[C@@H]1CN(Cc2cccnc2)CCN1C[C@@H](O)C[C@@H](Cc1ccccc1)C(=O)N[C@H]1c2ccccc2C[C@H]1O | Ba-L Laboratory isolate |  | p24 |  | 0.017 µM
Nc1ccn([C@@H]2CS[C@H](CO)O2)c(=O)n1 | Recombinant | RT-V75I F77L Q151M | p24 |  | 0.08 µM

Rows are shuffled and stem from different studies. ECn: concentration that inhibits the pathogen or its effect by n%.